Pooled drug test results. Numbers come from NIAID ChemDB, via PubChem.

All rows: tests in culture; species: Herpes simplex virus 2; read-out: EC50

ECn: concentration that inhibits the pathogen or its effect by n%. Lines come from different laboratories, so protocols vary. An empty or dashed field is not shown.

{"SMILES": "[N-]=[N+]=NCc1cn([C@H]2C[C@H](O)[C@@H](CO)O2)c(=O)[nH]c1=O", "read by": "cytopathic effect", "cell line": "PRK", "strain or isolate": "VDX192", "result": "4 µg/mL"}
{"SMILES": "O=c1[nH]c(=O)n([C@H]2C[C@H](O)[C@@H](CO)O2)cc1F", "read by": "cytopathic effect", "cell line": "PRK", "strain or isolate": "LYONS", "result": ">100 µg/mL"}
{"SMILES": "Cc1cn([C@H]2S[C@H](CO)[C@@H](O)[C@@H]2F)c(=O)[nH]c1=O", "read by": "cytopathic effect", "strain or isolate": "MS", "result": ">27 µg/mL"}
{"SMILES": "C=Cc1cc([C@H]2C[C@H](O)[C@@H](CO)O2)c(F)cc1F", "read by": "cytopathic effect", "cell line": "E6SM", "strain or isolate": "G", "result": ">400 µg/mL"}
{"SMILES": "O=c1[nH]c(=O)n([C@H]2C[C@H](O)[C@@H](COP(=O)(O)O)O2)cc1/C=C/c1cccc([N+](=O)[O-])c1", "read by": "cytopathic effect", "cell line": "PRK", "strain or isolate": "G", "result": ">100 µg/mL"}
{"SMILES": "CCc1cc([C@H]2C[C@H](O)[C@@H](CO)O2)c(F)cc1F", "read by": "cytopathic effect", "cell line": "E6SM", "strain or isolate": "LYONS", "result": ">400 µg/mL"}
{"SMILES": "OC[C@H]1O[C@@H](c2cc(C(F)(F)F)c(F)cc2F)C[C@@H]1O", "read by": "cytopathic effect", "cell line": "E6SM", "strain or isolate": "LYONS", "result": ">400 µg/mL"}
{"SMILES": "CC(=O)OC[C@H]1[C@H](COC(C)=O)[C@@H](COC(C)=O)O[C@H]1n1cnc2c(N)ncnc21", "read by": "plaque count", "cell line": "MEF", "strain or isolate": "X-79", "result": "172 µM"}
{"SMILES": "OC[C@H]1O[C@H](c2cc(Cl)c(F)cc2F)C[C@@H]1O", "read by": "cytopathic effect", "cell line": "E6SM", "strain or isolate": "LYONS", "result": ">400 µg/mL"}
{"SMILES": "CCOC(=O)c1c(Br)c(-c2ccccc2)n(COCCOC(C)=O)c1-c1ccccc1", "read by": "plaque count", "cell line": "VERO", "result": ">47 µM"}
{"SMILES": "O=c1[nH]c(=O)n([C@H]2C[C@H](O)[C@@H](CO)O2)cc1I", "read by": "cytopathic effect", "cell line": "PRK", "strain or isolate": "VDX192", "result": "0.4 µg/mL"}
{"SMILES": "OC[C@H]1O[C@H](c2ccc(F)cc2F)C[C@@H]1O", "read by": "cytopathic effect", "cell line": "E6SM", "strain or isolate": "G", "result": ">400 µg/mL"}
{"SMILES": "CCc1cn([C@@H]2S[C@H](CO)[C@@H](O)[C@@H]2F)c(=O)[nH]c1=O", "read by": "cytopathic effect", "strain or isolate": "MS", "result": "0.11 µg/mL"}
{"SMILES": "CO[C@H](CO)[C@@H](O)CCn1cnc2c(=O)[nH]c(N)nc21", "read by": "cytopathic effect", "cell line": "E6SM", "strain or isolate": "196", "result": ">400 µg/mL"}
{"SMILES": "O=C(O)CP(=O)(O)O", "read by": "plaque count", "cell line": "MEF", "strain or isolate": "X-79", "result": "15.6 µg/mL"}
{"SMILES": "Nc1ncnc2c1ncn2COCCO", "read by": "cytopathic effect", "cell line": "PRK", "result": "10 µg/mL"}
{"SMILES": "O=c1[nH]c(=O)n([C@H]2C[C@H](O)[C@@H](COP(=O)(O)O)O2)cc1CCc1ccccc1", "read by": "cytopathic effect", "cell line": "PRK", "strain or isolate": "G", "result": "15 µg/mL"}
{"SMILES": "O=C(NCc1ccc(Cl)cc1)c1cn2c3c(cc(CN4CCOCC4)cc3c1=O)OC(c1cccnc1)C2", "read by": "plaque count", "cell line": "HFF", "strain or isolate": "13077 (ACV-resistant)", "result": "4.3 µM"}
{"SMILES": "O=c1ccn(COCCO)c(=O)[nH]1", "read by": "cytopathic effect", "cell line": "PRK", "result": ">400 µg/mL"}
{"SMILES": "CSCc1cn([C@H]2C[C@H](O)[C@@H](CO)O2)c(=O)[nH]c1=O", "read by": "cytopathic effect", "cell line": "PRK", "strain or isolate": "VCX210", "result": "20 µg/mL"}
{"SMILES": "OCCOCn1c(-c2ccccc2)c(Br)c(-c2ccccc2)c1-c1ccccc1", "read by": "plaque count", "cell line": "VERO", "result": ">15 µM"}
{"SMILES": "O=c1[nH]c(=O)n([C@H]2C[C@H](O)[C@@H](CO)O2)cc1I", "read by": "cytopathic effect", "cell line": "PRK", "strain or isolate": "G", "result": "<0.91 µg/mL"}
{"SMILES": "CO[C@H](CO)[C@@H](O)CCn1cc(C)c(=O)[nH]c1=O", "read by": "cytopathic effect", "cell line": "E6SM", "strain or isolate": "196", "result": ">400 µg/mL"}
{"SMILES": "Nc1nc2c(ncn2CCCCO)c(=O)[nH]1", "read by": "plaque count", "cell line": "VERO", "strain or isolate": "91075", "result": "8 µM"}
{"SMILES": "OC[C@H]1O[C@@H](c2cc(Cl)c(F)cc2F)C[C@@H]1O", "read by": "cytopathic effect", "cell line": "E6SM", "strain or isolate": "196", "result": ">400 µg/mL"}
{"SMILES": "Nc1ncnc2c1ncn2CC[C@H](O)CCO", "read by": "cytopathic effect", "cell line": "E6SM", "strain or isolate": "196", "result": ">400 µg/mL"}
{"SMILES": "Nc1nc2c(ncn2COCCO)c(=O)[nH]1", "read by": "plaque count", "cell line": "VERO", "strain or isolate": "Lovelace MS", "result": "0.8 µM"}
{"SMILES": "OC[C@H]1O[C@@H](c2cc(I)c(F)cc2F)C[C@@H]1O", "read by": "cytopathic effect", "cell line": "E6SM", "strain or isolate": "LYONS", "result": ">400 µg/mL"}
{"SMILES": "CC(=O)OCCOCn1c(-c2ccccc2)cc([N+](=O)[O-])c1-c1ccccc1", "read by": "plaque count", "cell line": "VERO", "result": ">66 µM"}
{"SMILES": "OC[C@H]1O[C@@H](c2ccc(F)cc2F)C[C@@H]1O", "read by": "cytopathic effect", "cell line": "E6SM", "strain or isolate": "196", "result": ">400 µg/mL"}
{"SMILES": "Nc1ccn(CC[C@H](O)CCO)c(=O)n1", "read by": "cytopathic effect", "cell line": "E6SM", "strain or isolate": "G", "result": ">400 µg/mL"}
{"SMILES": "O=c1[nH]c(=O)n([C@H]2S[C@H](CO)[C@@H](O)[C@@H]2F)cc1I", "read by": "cytopathic effect", "strain or isolate": "MS", "result": ">27 µg/mL"}
{"SMILES": "CCc1cn([C@@H]2O[C@H](COP(=O)(O)O)[C@@H](O)[C@H]2O)c(=O)nc1N", "strain or isolate": "LYONS", "result": ">400 µg/mL"}
{"SMILES": "Cc1cn([C@@H]2O[C@H](CO)[C@@H](O)[C@@H]2F)c(=O)[nH]c1=O", "read by": "cytopathic effect", "cell line": "PRK", "strain or isolate": "G", "result": "<0.02 µg/mL"}
{"SMILES": "O=Cc1cn([C@H]2C[C@H](O)[C@@H](CO)O2)c(=O)[nH]c1=O", "read by": "cytopathic effect", "cell line": "PRK", "strain or isolate": "VCX210", "result": "4 µg/mL"}
{"SMILES": "CCc1cn([C@@H]2OC3COP(=O)(O)OC3[C@H]2O)c(=O)nc1N", "strain or isolate": "196", "result": ">400 µg/mL"}
{"SMILES": "O=c1[nH]c(=O)n([C@@H]2S[C@H](CO)[C@@H](O)[C@@H]2F)cc1I", "read by": "cytopathic effect", "strain or isolate": "MS", "result": "0.32 µg/mL"}
{"SMILES": "CCCc1cn([C@@H]2O[C@H](COP(=O)(O)O)[C@@H](O)[C@H]2O)c(=O)nc1N", "strain or isolate": "G", "result": ">400 µg/mL"}
{"SMILES": "Nc1nc(=O)n([C@@H]2O[C@H](CO)[C@@H](O)[C@@H]2F)cc1I", "read by": "cytopathic effect", "cell line": "VERO", "strain or isolate": "K979", "result": "<0.1 µg/mL"}
{"SMILES": "Nc1ncnc2c1ncn2[C@@H]1O[C@H](CO)[C@@H](O)[C@@H]1O", "read by": "plaque count", "cell line": "MEF", "strain or isolate": "Clinical isolate HEETER", "result": "38 µM"}
{"SMILES": "[N-]=[N+]=NC(CBr)c1cc([C@H]2C[C@H](O)[C@@H](CO)O2)c(F)cc1F", "read by": "cytopathic effect", "cell line": "E6SM", "strain or isolate": "196", "result": ">400 µg/mL"}
{"SMILES": "Nc1cc([C@H]2C[C@H](O)[C@@H](CO)O2)c(F)cc1F", "read by": "cytopathic effect", "cell line": "E6SM", "strain or isolate": "LYONS", "result": ">400 µg/mL"}
{"SMILES": "Nc1nc2c(ncn2CC[C@H](O)CO)c(=O)[nH]1", "read by": "plaque count", "cell line": "HEL", "strain or isolate": "91075", "result": "42 µM"}
{"SMILES": "O=c1[nH]c(=O)n([C@@H]2S[C@H](CO)[C@@H](O)[C@@H]2F)cc1F", "read by": "cytopathic effect", "strain or isolate": "MS", "result": ">27 µg/mL"}
{"SMILES": "OC[C@H]1O[C@H](c2cc(F)c(F)cc2F)C[C@@H]1O", "read by": "cytopathic effect", "cell line": "E6SM", "strain or isolate": "LYONS", "result": ">400 µg/mL"}
{"SMILES": "Cn1cc(C(=O)NCc2ccc(Cl)cc2)c(=O)c2cc(CN3CCOCC3)ccc21", "read by": "plaque count", "cell line": "HFF", "strain or isolate": "AG-3 (ACV-resistant)", "result": "3 µM"}
{"SMILES": "Nc1nc(=O)n(COCCO)cc1[N+](=O)[O-]", "read by": "cytopathic effect", "cell line": "PRK", "result": ">400 µg/mL"}
{"SMILES": "Nc1ncnc2c1ncn2[C@@H]1O[C@H](CO)[C@@H](O)[C@H]1OP(=O)(O)OC[C@H]1O[C@@H](n2cnc3c(N)ncnc32)[C@H](OP(=O)(O)OC[C@H]2O[C@@H](n3cc(F)c(=O)[nH]c3=O)C[C@@H]2O)[C@@H]1O", "read by": "cytopathic effect", "cell line": "PRK", "strain or isolate": "196", "result": ">100 µg/mL"}
{"SMILES": "CCc1cn([C@H]2S[C@H](CO)[C@@H](O)[C@@H]2F)c(=O)[nH]c1=O", "read by": "cytopathic effect", "strain or isolate": "MS", "result": "27 µg/mL"}
{"SMILES": "CCCCc1cn([C@@H]2OC3COP(=O)(O)OC3[C@H]2O)c(=O)nc1N", "strain or isolate": "G", "result": ">400 µg/mL"}
{"SMILES": "O=c1[nH]c(=O)n([C@H]2C[C@H](O)[C@@H](CO)O2)cc1/C=C/Br", "read by": "cytopathic effect", "cell line": "HEP-2", "strain or isolate": "K979", "result": "<3 µg/mL"}
{"SMILES": "CCCCCCc1cn([C@@H]2O[C@H](COP(=O)(O)O)[C@@H](O)[C@H]2O)c(=O)nc1N", "strain or isolate": "G", "result": ">400 µg/mL"}
{"SMILES": "O=c1cc(O)ccn1COCCO", "read by": "cytopathic effect", "cell line": "PRK", "result": ">400 µg/mL"}
{"SMILES": "Nc1nc2c(ncn2COC(CO)CO)c(=O)[nH]1", "read by": "plaque count", "cell line": "VERO", "strain or isolate": "G", "result": "0.3 µM"}

6 of the rows above, restated:

SMILES | read by | cell line | strain or isolate | result
Nc1ncnc2c1ncn2CC[C@H](O)CCO | cytopathic effect | E6SM | 196 | >400 µg/mL
CCc1cn([C@@H]2O[C@H](COP(=O)(O)O)[C@@H](O)[C@H]2O)c(=O)nc1N |  |  | LYONS | >400 µg/mL
Nc1ncnc2c1ncn2[C@@H]1O[C@H](CO)[C@@H](O)[C@H]1OP(=O)(O)OC[C@H]1O[C@@H](n2cnc3c(N)ncnc32)[C@H](OP(=O)(O)OC[C@H]2O[C@@H](n3cc(F)c(=O)[nH]c3=O)C[C@@H]2O)[C@@H]1O | cytopathic effect | PRK | 196 | >100 µg/mL
Cc1cn([C@@H]2O[C@H](CO)[C@@H](O)[C@@H]2F)c(=O)[nH]c1=O | cytopathic effect | PRK | G | <0.02 µg/mL
OC[C@H]1O[C@H](c2cc(F)c(F)cc2F)C[C@@H]1O | cytopathic effect | E6SM | LYONS | >400 µg/mL
O=c1[nH]c(=O)n([C@@H]2S[C@H](CO)[C@@H](O)[C@@H]2F)cc1I | cytopathic effect |  | MS | 0.32 µg/mL